## Screening data, single-dose tests

Mtb glucose medium: 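Whole-cell growth test on Mycobacterium tuberculosis, read after 3 days in glucose-containing 7H9 medium; the read-out is not stated. Concentration: 50 µM. Direction is inferred from retests: higher values go with more growth inhibition. Size under these conditions: about 69,000 compounds, about 760 of them at 50% or above in at least one test.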
Mtb cholesterol medium: 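Whole-cell growth test on Mycobacterium tuberculosis, read after 4 days in a medium based on cholesterol and the lipid DPPC; the read-out is not stated. Concentration: 50 µM. The record gives no direction; compounds that gave an IC50 in retests scored well above the rest, so higher reads as more growth inhibition. Of about 69,000 compounds tested this way, about 370 (0.54%) reached 50% or more in at least one test.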

Results are given as percent effect.
How 0% and 100% were set is not recorded. Most values in the screen are low, and negative values occur.
This is part of a subset picked to be rich in strong results.
Two or more numbers in one place are separate tests of the same structure; such repeats can differ widely.
A dash means the value is not listed here; it may have been measured.

structure	Mtb glucose medium	Mtb cholesterol medium
CC(C)c1cc(=O)[nH]c(C(C)(C)N)n1.Cl	-12.28	-
CCc1noc(CN2CCN(C(=O)Cc3ccc(F)cc3)CC2)n1	9.901	-
O=C1NCC2(CCCN(C(=O)c3csc(-c4cccs4)n3)C2)O1 (stereo not shown)	26.44 & -0.2976	-
COCc1noc(C2(c3ccc(F)cc3)CCC2)n1	-5.787 & 7.403	-
COC(=O)NCC(=O)N1CCC(c2cc3ccccc3[nH]2)CC1	18.08	-
O=C(O)[C@@H]1CN(C(=O)NCC2CCCCC2)C[C@H]1c1ccccn1	-	8.983 & 55.74
CO[C@H]1CCN(Cc2nccs2)C[C@@H]1Cc1ccccc1	55.46	10.5
Fc1ccccc1OC1CCN(CCn2cc3ccccc3n2)CC1	52.51	53.36
Cc1c(NC(=O)c2ccc(Br)cc2)c(C(=O)N(C)C)nn1C	3.789	-
CN(C)CC1(O)CCCN(C(=O)Cn2ccc3ccccc32)CC1 (stereo not shown)	2.586 & -26.81	-4.374
C=C(C)CN1CCN(CCC(=O)Nc2ccccc2C(N)=O)CC1	12.96	-
O=C(NCC(CO)Cc1ccc(Cl)cc1)c1ccncc1F (stereo not shown)	4.312 & -10.05	-
Cc1cc(C)n(C2CN(CC(=O)N(C)Cc3ccco3)C2)n1	-2.426	-
Cc1nc(C2CCCN(C(=O)c3ccoc3)C2)no1 (stereo not shown)	-3.59	-
CC(C)C(=O)Nc1cccc(C(=O)Nc2ccccn2)c1	-17.87 & 8.144	-
OC1(c2ccccc2F)CCN(Cc2ccccc2N2CCCC2)CC1	36.19	10.76
c1ccc(Cc2noc(CN3CCCC3Cn3cccn3)n2)cc1 (stereo not shown)	50.7	-
Cc1ncsc1CN(C)C(=O)C(CC(C)C)N1CCCCC1=O (stereo not shown)	-	7.137
Cc1nc2ccccc2nc1CN(C)CC1CCCN1c1cccnn1 (stereo not shown)	5.694	-
O=C(NCC(=O)N1CCc2ccccc2C1)c1ccoc1	-24.12	-
CC1(C)CN(CCC(=O)NCc2cccc(Cl)c2)CC[C@]1(C)O	-3.261 & 8.159	-
CSc1nccc(N2CCC3(CCCN(Cc4cccc(C)c4)C3)C2)n1 (stereo not shown)	8.122	-6.831
O=C(O)c1cc(-c2ccc3c(c2)OCO3)cc(S(=O)(=O)NC2CC2)c1	-0.18	-
Cc1cnn(CC2CN(c3cnc4ccccc4n3)CCO2)c1 (stereo not shown)	64.96	82.16
CCOc1ccc2nc(CN3CCOC(CN)C3)ccc2c1 (stereo not shown)	45.03	-
CCc1csc(C2CCCN(C(=O)c3c[nH]c(C)n3)C2)n1 (stereo not shown)	5.304	-
O=C1N(Cc2ccc(F)c(F)c2)CCCC12CCN(C1CCSCC1)C2 (stereo not shown)	58.09	-3.542
Cc1ccc(CN(CCCn2ccnc2)Cc2c(F)cccc2F)s1.O=C(O)CC(O)(CC(=O)O)C(=O)O	43.56	13.38
Clc1ccccc1C1(c2ccnc(-c3ncccn3)n2)CCNCC1	13.68	-
CC(C1CC1)N(C)Cc1nnc(-c2ccco2)o1 (stereo not shown)	23.71 & 40.96	-
Fc1ccccc1CN1CCCC2(CCN(c3ncccn3)C2)C1 (stereo not shown)	38.41 & 40.6	-
COc1ccccc1C(O)CNc1nccc(-c2ccc(C)nc2C)n1 (stereo not shown)	11.09 & 13.96	-
N#Cc1ccc(SCCOCCO)c(F)c1	18.81	-
Cc1cnc(C(=O)N2CCCN(c3nc(C)cs3)CC2)cn1	9.398	-
COC(=O)c1ccc(C(=O)NCc2ccco2)nc1	-5.704 & 9.565	-28.88
Fc1ccc(CN[C@@H]2COC[C@H]2c2ccc(F)cc2)cc1.O=C(O)CC(O)(CC(=O)O)C(=O)O	8.334	-
CC(C)c1cccc(S(=O)(=O)NCCCN2CCC(O)CC2)c1	5.704 & 6.126	-
CCc1ccc(CN2CCC3(CCCN(C(=O)N(C)C)C3)C2)o1 (stereo not shown)	-0.4561 & -12.96	-14.97
N#Cc1nccnc1N1CCC(CSc2ccccc2)C1 (stereo not shown)	-	58.43
CN(Cc1nc(Cc2ccccc2F)no1)CC1Cc2ccccc2O1 (stereo not shown)	-	-3.866
C1CCC(CNC2CCCN(Cc3noc(C4CC4)n3)C2)C1 (stereo not shown)	2.264 & -10.09	-14.15
Cc1cc(CN(C)C2CCN(c3cccc(-c4cscn4)c3)CC2)on1	53.3	-
COC(=O)CNC(=O)c1scnc1C	-9.509	-5.145
CCSc1nsc(NC(=O)COc2ccc3c(c2)OCO3)n1	59.61 & 15.4	-
CCn1cnnc1Cc1nc2c([nH]1)CC(c1ccc(Cl)cc1)CNC2=O (stereo not shown)	-	-25.4
CC1CCN(C(=O)C2CCN(c3ccc(Cl)cc3C#N)CC2)CC1	13.59 & 26.85	-
Cc1ccc(CNC(c2ccccc2)c2nccn2C)cc1C (stereo not shown)	39.82	-
Fc1cc(F)cc(CN2CCC(c3cc4ncccc4cn3)CC2)c1	9.196	9.448
Cc1nn(C2CCCC2)c2nc(C(C)(C)CN3CCN(C)CC3)[nH]c12	71.49	-
CNC(=O)NC(=O)CCN1CCN(c2nccs2)CC1	16.15	-
NC(=O)NC(=O)CCN1CCCN(c2nccs2)CC1	79.74	-
CN1CCN(C(=O)C2CCCN(c3cccnn3)C2)CC1 (stereo not shown)	58.83	-
COc1cccc(N2Cc3nc(=O)n(C(C)C)n3C2=O)c1	60.22	-
O=S(=O)(c1ccccc1N1CC(n2cccn2)C1)C(F)(F)F	6.756	11.59
N#CC1CCCN(S(=O)(=O)c2ccc(C(=O)NCC(F)F)cc2)C1 (stereo not shown)	-	-3.88
COC(=O)COn1c(SC(C)C)nc2ccccc2c1=O	82.4	-
O=C(O)C(F)(F)F.OCCN1CCC2(CCc3cc(-c4ccoc4)ccc32)CC1	51.75 & 45.47	23.5
CN1CCOC[C@H]1c1nc(-c2ccncc2)c[nH]1	8.876 & 5.056	-
CC(C)(C)CC(=O)N1CCc2sccc2C1	-7.177 & -0.8459	-
c1ccc2nc(N3CCOC(Cn4cccn4)C3)cnc2c1 (stereo not shown)	30.94	-2.129
Cc1nc(O)cc(CCNC(=O)C2CC(=O)N(CC(C)C)C2)n1 (stereo not shown)	-	91.99
COCc1cc(N2CCc3onc(-c4cccc(OC)c4)c3C2)ncn1	-7.941	-
c1cnc(N2CCOCC3(CCN(c4cnccn4)CC3)C2)nc1	-3.731	-
OCC1COCCN(c2ncccc2C(F)(F)F)C1 (stereo not shown)	20.44	-
COc1ccc(F)c(-c2cc(NCCO)nc(N)n2)c1	-19.12 & 6.149	-9.925 & -1.808

Repeated from the top, 8 entries:

{"structure": "CC(C)c1cc(=O)[nH]c(C(C)(C)N)n1.Cl", "Mtb glucose medium": -12.28}
{"structure": "CCc1noc(CN2CCN(C(=O)Cc3ccc(F)cc3)CC2)n1", "Mtb glucose medium": 9.901}
{"structure": "O=C1NCC2(CCCN(C(=O)c3csc(-c4cccs4)n3)C2)O1", "stereo": "stereo not shown", "Mtb glucose medium": "26.44 & -0.2976"}
{"structure": "COCc1noc(C2(c3ccc(F)cc3)CCC2)n1", "Mtb glucose medium": "-5.787 & 7.403"}
{"structure": "COC(=O)NCC(=O)N1CCC(c2cc3ccccc3[nH]2)CC1", "Mtb glucose medium": 18.08}
{"structure": "O=C(O)[C@@H]1CN(C(=O)NCC2CCCCC2)C[C@H]1c1ccccn1", "Mtb cholesterol medium": "8.983 & 55.74"}
{"structure": "CO[C@H]1CCN(Cc2nccs2)C[C@@H]1Cc1ccccc1", "Mtb glucose medium": 55.46, "Mtb cholesterol medium": 10.5}
{"structure": "Fc1ccccc1OC1CCN(CCn2cc3ccccc3n2)CC1", "Mtb glucose medium": 52.51, "Mtb cholesterol medium": 53.36}

Data taken from ChEMBL document CHEMBL3988442, “University of Dundee, Small-Polar-MMV Screening Library” (2021).